A mixed list of measured activities; the numbers were collected in NIAID ChemDB.

Common to all: toxicity to cultured cells; cell line: KB; measure: CC50

Conditions beyond the fields shown may differ between rows. CCn: concentration that lowers growth or viability of the cells by n%.

smiles | value
OCC1OC(n2c(NC3CC3)nc3nc4cc(Cl)c(Cl)cc4nc32)C(O)C1O | 90 µM
Cc1c2ccncc2c(C)c2c1[nH]c1ccccc12 | 0.3 µg/mL
OC[C@H]1O[C@@H](n2cnc3cc(Cl)c(Cl)cc32)[C@H](O)[C@@H]1O | 36 µM
CC(C)Nc1nc2cc3cc(Cl)c(Cl)cc3nc2n1[C@@H]1O[C@H](CO)[C@@H](O)[C@H]1O | 90 µM
C[C@H]1c2ccoc2C[C@H]2[C@H]1[C@@H](O)[C@@H](OC(=O)c1ccccc1)[C@@]1(O)C(C)(C)CCC[C@]21C | 9.9 µg/mL
O=c1[nH]cnc2c1ncn2[C@H]1CC[C@@H](CO)O1 | >500 µM
OCCOCn1c(Br)nc(Cl)c1Cl | >100 µM
COc1cc(C(=O)Oc2c(-c3ccc(Cl)c(Cl)c3)oc3ccccc3c2=O)ccc1O | 4.7 µM
OC[C@H]1O[C@@H](n2cnc3nc4cc(Cl)c(Cl)cc4cc32)[C@H](O)[C@@H]1O | 85 µM
OC[C@H]1O[C@@H](n2c(Cl)nc3cc(Cl)c(Cl)cc32)[C@H](O)[C@@H]1O | 210 µM
OCCOCn1c(Br)nc(Br)c1Br | >100 µM
CC(=O)O[C@@H](/C=C(\C)C(=O)O)C[C@@H](C)[C@H]1CC[C@@]2(C)C3CC[C@H]4C(C)(C)C(=O)CC[C@]4(C)C3=CC[C@]12C | 25.26 µM
OC[C@H]1O[C@@H](n2cnc3cc(Cl)c(Cl)cc32)[C@H](O)[C@@H]1O | 36 µM
C[C@](Cl)([C@@H](Br)/C=C/[C@](C)(Cl)CBr)[C@@H](Br)CCl | 12.4 µg/mL
Nc1nc(NC2CC2)c2ncn([C@H]3C=C[C@@H](CO)O3)c2n1 | >500 µM
CCC[C@@H](O)C1=C(Br)/C(=C/Br)OC1=O | 0.4 µg/mL
OC[C@H]1O[C@@H](n2c(Br)nc(Br)c2Br)[C@@H](O)[C@@H]1O | 90 µM
COc1cc(C(=O)Oc2c(-c3ccc(Cl)cc3)oc3ccccc3c2=O)cc(OC)c1OC(C)=O | 6.5 µM
OC[C@H]1O[C@@H](n2cnc(Br)c2Br)[C@H](O)[C@@H]1O | >100 µM
OC[C@H]1O[C@@H](n2c(SCc3ccccc3)nc3nc4cc(Cl)c(Cl)cc4cc32)[C@H](O)[C@@H]1O | 40 µM
Nc1ccn([C@@H]2C[C@@H](O)[C@H](CO)O2)c(=O)n1 | >100 µM
CC(=O)c1c(O)c(C)c(O)c2c1OC1=CC(=O)C(C(C)=O)C(=O)[C@]12C | 13 µg/mL
Nc1nc(N)c2ncn([C@H]3CO[C@@H](CO)O3)c2n1 | >500 µM
COc1cc(/C=C/C(=O)Oc2c(-c3ccc(Cl)cc3)oc3ccccc3c2=O)ccc1OC(C)=O | 19 µM
OCC(CO)OCn1c(Cl)nc(Cl)c1Cl | 25 µM
[C-]#[N+][C@@H]1[C@H](C(C)C)CC[C@@H](C)C12C=C(C)CC2 | >20 µg/mL
Nc1ccn([C@@H]2C[C@@H](O)[C@H](CO)O2)c(=O)n1 | >100 µM
COC(=O)/C(C)=C/C=C/[C@@H](C)[C@H]1CC[C@@]2(C)C3CC[C@H]4C(C)(C)C(=O)CC[C@]4(C)[C@@]3(O)CC[C@]12C | >40 µM
OCC1OC(n2cnc3nc4cc(Cl)c(Cl)cc4nc32)C(O)C1O | >100 µM
C/C(=C\C=C\[C@@H](C)C1CC[C@@]2(C)[C@@H]3CC[C@H]4C(C)(C)C(=O)CC[C@]4(C)[C@@]3(O)CC[C@]12C)C(=O)O | 28.83 µM
CC(C)Nc1nc2cc3cc(Cl)c(Cl)cc3cc2n1[C@@H]1O[C@H](CO)[C@@H](O)[C@H]1O | 146 µM

The last 4 rows once more:

| smiles | value |
|---|---|
| COC(=O)/C(C)=C/C=C/[C@@H](C)[C@H]1CC[C@@]2(C)C3CC[C@H]4C(C)(C)C(=O)CC[C@]4(C)[C@@]3(O)CC[C@]12C | >40 µM |
| OCC1OC(n2cnc3nc4cc(Cl)c(Cl)cc4nc32)C(O)C1O | >100 µM |
| C/C(=C\C=C\[C@@H](C)C1CC[C@@]2(C)[C@@H]3CC[C@H]4C(C)(C)C(=O)CC[C@]4(C)[C@@]3(O)CC[C@]12C)C(=O)O | 28.83 µM |
| CC(C)Nc1nc2cc3cc(Cl)c(Cl)cc3cc2n1[C@@H]1O[C@H](CO)[C@@H](O)[C@H]1O | 146 µM |